Pooled drug test results. Numbers come from NIAID ChemDB, via PubChem.

All rows: toxicity to cultured cells; cells: MT-4; endpoint: CC50

An empty or dashed field is not shown. CCn: concentration that lowers growth or viability of the cells by n%. Neighbouring rows are from separate reports.

smiles,method,result
O=C(COc1cccnc1-c1cccc2ccccc12)Nc1ccc(C(F)(F)F)cc1,MTT / absorbance,11.7 µM
N#Cc1cc(Cl)cc(Oc2cc(F)c(Cl)c(OCc3[nH]nc4ncccc34)c2)c1,microscopy,>20 µM
Cc1cn([C@H]2C[C@H](N=[N+]=[N-])[C@@H](CO)O2)c(=O)[nH]c1=O,MTT,>7.49 µM
Cc1cccc(Sc2c(C(=O)NCCO)[nH]c3ccc(Cl)cc23)c1,MTT,30 µM
O=C1CC2CCC1C1C(=O)N(CCCN3CCN(c4ccc(F)cc4)CC3)C(=O)C21,MTT,>100 µM
CC1(C)NC(=O)Cn2c1nc(C(=O)NCc1ccc(F)cc1)c(O)c2=O,microscopy,>1 µM
Cc1cccc(S(=O)(=O)c2c(C(=O)NCCO)[nH]c3ccc(Cl)cc23)c1,MTT,60 µM
Cn1nncc1CN1CCn2c(nc(C(=O)NCc3ccc(F)cc3)c(O)c2=O)C1(C)C,microscopy,>1 µM
CN(Cc1ccccc1)C(=O)c1cccn1S(=O)(=O)c1cc(Cl)ccc1N,MTT,87 µM
C=C(C)[C@]1(O)C[C@@H](C)[C@@]2(O)[C@H]([C@H]1OC(=O)/C=C/C=C/CCCCC)[C@@H]1O[C@]1(CO)[C@@H](O)[C@]1(O)C(=O)C(C)=C[C@H]12,MTT,62.7 µM
CCCCC(=O)OC[C@H]1O[C@@H](n2cnc3c(N)ncnc32)[C@@H]1CO,-,>10 µg/mL
NC(=O)c1ccc(NC(=O)COc2cccnc2-c2cccc3ccccc23)cc1,MTT / absorbance,29.4 µM
O=C(NNCCO)c1[nH]c2ccc(Cl)cc2c1S(=O)(=O)c1ccccc1,MTT,>100 µM
CCn1c(C)c(C(=O)OC)c(C(=O)OC)c1Cc1ccccc1,-,65 µM
[N-]=[N+]=NC[C@H]1[C@H](n2cnc3c(N)ncnc32)O[C@@H]1CO,-,>100 µg/mL
O=C(OC1CCCCC1)c1cccn1S(=O)(=O)c1cc(Cl)ccc1[N+](=O)[O-],MTT,160 µM
Cc1cc(C)cc(S(=O)(=O)c2c(C(=O)N[C@@H]3CCN(Cc4cccnc4)C3)[nH]c3ccc(Cl)cc23)c1,MTT,36.52 µM
O=C1CC2CCC1C1C(=O)N(CCCBr)C(=O)C21,MTT,>100 µM
NS(=O)(=O)c1ccc(NC(=O)COc2cccnc2-c2cccc3ccccc23)cc1,MTT / absorbance,143 µM
O=C1CC2CCC1C1C(=O)N(CC(O)CN3CCN(c4ccccn4)CC3)C(=O)C21,MTT,>100 µM
CCOC(=O)c1c(CSc2ccccc2)n(C)c2cc(Br)c(O)c(CN(C)C)c12,MTT,23 µM
CCN1C[C@H](C)n2c(c(O)c3c(=O)n(Cc4ccc(F)c(Cl)c4)nc(N4CCN(C)S4(=O)=O)c32)C1=O,-,>8 µM
NC(=O)c1ccc(NC(=O)COc2cccnc2-c2ccc(C(F)(F)F)cc2)cc1,MTT / absorbance,69.5 µM
CC(CS)C(=O)N1CCC[C@@H]1C(=O)NCC(=O)N1CCN(c2nc3ccccc3s2)CC1,MTT,1.21 µg/mL
C#CCOC(=O)c1cccn1S(=O)(=O)c1cc(Cl)ccc1[N+](=O)[O-],MTT,4.9 µM
CN(C)c1ccc2c(COc3ccc(Cl)c(Oc4cc(Cl)cc(C#N)c4)c3)[nH]nc2n1,microscopy,>20 µM
CC(C)COC(=O)c1cccn1S(=O)(=O)c1cc(Cl)ccc1N,MTT,>200 µM
O=C1CC2CCC1C1C(=O)N(CC(O)CN3CCN(c4ccc(F)cc4)CC3)C(=O)C21,MTT,>100 µM
Cc1cc(C)cc(S(=O)(=O)c2c(C(=O)NC3CN(Cc4n[nH]c(=O)n4C)C3)[nH]c3ccc(Cl)cc23)c1,MTT,25.18 µM
CCC(C)OC(=O)c1cccn1S(=O)(=O)c1cc(Cl)ccc1[N+](=O)[O-],MTT,32.5 µM
Cc1cc(C)cc(S(=O)(=O)c2c(C(=O)NC3CN(Cc4cccnc4)C3)[nH]c3ccc(Cl)cc23)c1,MTT,36.03 µM
O=C(OC1CCCC1)c1cccn1S(=O)(=O)c1cc(Cl)ccc1[N+](=O)[O-],MTT,11 µM
COC(=O)c1ccc(NC(=O)COc2cccnc2-c2cccc3ccccc23)c([N+](=O)[O-])c1,MTT / absorbance,62 µM
Nc1ncnc2c1ncn2[C@@H]1C[C@@H](O)[C@@H](O)[C@H]1O,-,1 µM
Cc1cc(C)cc(S(=O)(=O)c2c(C(=O)N[C@H]3CCN(Cc4ccccc4F)C3)[nH]c3ccc(Cl)cc23)c1,MTT,215 µM
C[C@H](CSCC(N)=O)C(=O)N1CCC[C@@H]1C(=O)O,MTT,3.12 µg/mL
O=C1CC2CCC1C1C(=O)N(CCCCN3CCN(c4ccccc4O)CC3)C(=O)C21,MTT,>100 µM
Cc1sc(-c2ccncc2)c(C2=CCC(C)(C)CC2)c1[C@H](OC(C)(C)C)C(=O)O,luminescence,42 µM
O=S(=O)(O)c1cc(S(=O)(=O)O)c2cc(NS(=O)(=O)c3ccc(-c4ccc(S(=O)(=O)Nc5ccc6cc(S(=O)(=O)O)cc(S(=O)(=O)O)c6c5)cc4)cc3)ccc2c1,-,47 µM
CCc1cc(NCc2nc(C)c(C)cc2OC)c(=O)[nH]c1C,-,>50 µM
CCOC(=O)c1cccn1S(=O)(=O)c1cc(Cl)ccc1NC(=O)CN1CCOCC1,-,100 µM
O=C(Oc1ccccc1)c1cccn1S(=O)(=O)c1cc(Cl)ccc1[N+](=O)[O-],MTT,15.5 µM
CCOC(=O)c1c([C@@H]2C[C@H]2c2ccccc2)n(C)c2ccc(O)cc12,MTT,>298 µM
O=C(OCC1CC1)c1cccn1S(=O)(=O)c1cc(Cl)ccc1[N+](=O)[O-],MTT,96 µM
N#Cc1cc(Cl)cc(Oc2cc(Cl)cc(OCC(=O)NC3CCS(=O)(=O)C3)c2)c1,microscopy,>20 µM
N#Cc1ccc(NC(=O)COc2cccnc2-c2cccc3ccccc23)cc1,MTT / absorbance,39.5 µM
CCc1cc(CNc2cc(CC)c(C)[nH]c2=O)c(OC)nc1C,-,>50 µM
CCOC(=O)c1cccn1S(=O)(=O)c1cc(Cl)ccc1NC=O,-,>200 µM
N#Cc1cc(Cl)cc(Oc2cc(OCc3[nH]nc4nc(N5CC(N)C5)ccc34)ccc2Cl)c1,microscopy,>20 µM
NC(=O)c1cccn1S(=O)(=O)c1cc(Cl)ccc1[N+](=O)[O-],MTT,52 µM
C[C@H](CSCCN1C(=O)c2ccccc2C1=O)C(=O)N1CCC[C@@H]1C(=O)O,MTT,22.43 µg/mL
CC(C)(C)c1ccc(-c2ncccc2OCC(=O)Nc2ccc(S(N)(=O)=O)cc2)cc1,MTT / absorbance,270 µM
CCc1cc(NCc2ccccc2OC)c(=O)[nH]c1C,-,>50 µM
CN(C)S(=O)(=O)N1CCn2c(nc(C(=O)NCc3ccc(F)cc3)c(O)c2=O)C1(C)C,microscopy,>1 µM
O=c1[nH]cnc2c1ncn2[C@@H]1O[C@H](CO)[C@H]1COS(=O)(=O)O,-,>100 µg/mL
N#Cc1cc(Cl)cc(Oc2cc(F)cc(OCc3[nH]nc4ncccc34)c2)c1,microscopy,>20 µM
Cc1ccc(CNC(=O)c2nc3n(c(=O)c2O)CCN(C2CC2)CC3N(C)C(=O)C(=O)N(C)C)cc1Cl,microscopy,>1 µM
CCOC(=O)c1cccn1S(=O)(=O)c1cccc(N)c1,-,>200 µM
NS(=O)(=O)c1ccc(NC(=O)CNc2cccc(Oc3ccccc3)c2)c(Cl)c1,microscopy,>20 µM
CCN1C[C@H](C)n2c(c(O)c3c(=O)n(Cc4ccc(F)c(Cl)c4)nc(C(=O)NC)c32)C1=O,-,12 µM
CC1(C)NC(=O)n2c1nc(C(=O)NCc1ccc(F)cc1)c(O)c2=O,microscopy,>1 µM
Cc1cc(C#N)cc(C)c1Oc1nc(Nc2ccc(C#N)cc2)nc(N)c1Br,MTT / absorbance,>4.59 µM
N#Cc1cc(Cl)cc(Oc2cc(OCc3[nH]nc4nc(N5CCNCC5)ccc34)ccc2Cl)c1,microscopy,>20 µM
COc1cc2c(c(O)c1OC)-c1c(cc(OC)c(OC)c1O)C[C@H](C)[C@H](C)C2,MTT,205 µM
C[C@H](CS)C(=O)N1CCC[C@@H]1c1nc2ncccc2[nH]1,MTT,4.24 µg/mL
O=C1CC2CCC1C1C(=O)NC(=O)C21,MTT,>100 µM